{"sequences": {"note": "Protein sequences, listed by entry. Tags and fused reporters are not part of them.", "UniProt P35499, whole entry": "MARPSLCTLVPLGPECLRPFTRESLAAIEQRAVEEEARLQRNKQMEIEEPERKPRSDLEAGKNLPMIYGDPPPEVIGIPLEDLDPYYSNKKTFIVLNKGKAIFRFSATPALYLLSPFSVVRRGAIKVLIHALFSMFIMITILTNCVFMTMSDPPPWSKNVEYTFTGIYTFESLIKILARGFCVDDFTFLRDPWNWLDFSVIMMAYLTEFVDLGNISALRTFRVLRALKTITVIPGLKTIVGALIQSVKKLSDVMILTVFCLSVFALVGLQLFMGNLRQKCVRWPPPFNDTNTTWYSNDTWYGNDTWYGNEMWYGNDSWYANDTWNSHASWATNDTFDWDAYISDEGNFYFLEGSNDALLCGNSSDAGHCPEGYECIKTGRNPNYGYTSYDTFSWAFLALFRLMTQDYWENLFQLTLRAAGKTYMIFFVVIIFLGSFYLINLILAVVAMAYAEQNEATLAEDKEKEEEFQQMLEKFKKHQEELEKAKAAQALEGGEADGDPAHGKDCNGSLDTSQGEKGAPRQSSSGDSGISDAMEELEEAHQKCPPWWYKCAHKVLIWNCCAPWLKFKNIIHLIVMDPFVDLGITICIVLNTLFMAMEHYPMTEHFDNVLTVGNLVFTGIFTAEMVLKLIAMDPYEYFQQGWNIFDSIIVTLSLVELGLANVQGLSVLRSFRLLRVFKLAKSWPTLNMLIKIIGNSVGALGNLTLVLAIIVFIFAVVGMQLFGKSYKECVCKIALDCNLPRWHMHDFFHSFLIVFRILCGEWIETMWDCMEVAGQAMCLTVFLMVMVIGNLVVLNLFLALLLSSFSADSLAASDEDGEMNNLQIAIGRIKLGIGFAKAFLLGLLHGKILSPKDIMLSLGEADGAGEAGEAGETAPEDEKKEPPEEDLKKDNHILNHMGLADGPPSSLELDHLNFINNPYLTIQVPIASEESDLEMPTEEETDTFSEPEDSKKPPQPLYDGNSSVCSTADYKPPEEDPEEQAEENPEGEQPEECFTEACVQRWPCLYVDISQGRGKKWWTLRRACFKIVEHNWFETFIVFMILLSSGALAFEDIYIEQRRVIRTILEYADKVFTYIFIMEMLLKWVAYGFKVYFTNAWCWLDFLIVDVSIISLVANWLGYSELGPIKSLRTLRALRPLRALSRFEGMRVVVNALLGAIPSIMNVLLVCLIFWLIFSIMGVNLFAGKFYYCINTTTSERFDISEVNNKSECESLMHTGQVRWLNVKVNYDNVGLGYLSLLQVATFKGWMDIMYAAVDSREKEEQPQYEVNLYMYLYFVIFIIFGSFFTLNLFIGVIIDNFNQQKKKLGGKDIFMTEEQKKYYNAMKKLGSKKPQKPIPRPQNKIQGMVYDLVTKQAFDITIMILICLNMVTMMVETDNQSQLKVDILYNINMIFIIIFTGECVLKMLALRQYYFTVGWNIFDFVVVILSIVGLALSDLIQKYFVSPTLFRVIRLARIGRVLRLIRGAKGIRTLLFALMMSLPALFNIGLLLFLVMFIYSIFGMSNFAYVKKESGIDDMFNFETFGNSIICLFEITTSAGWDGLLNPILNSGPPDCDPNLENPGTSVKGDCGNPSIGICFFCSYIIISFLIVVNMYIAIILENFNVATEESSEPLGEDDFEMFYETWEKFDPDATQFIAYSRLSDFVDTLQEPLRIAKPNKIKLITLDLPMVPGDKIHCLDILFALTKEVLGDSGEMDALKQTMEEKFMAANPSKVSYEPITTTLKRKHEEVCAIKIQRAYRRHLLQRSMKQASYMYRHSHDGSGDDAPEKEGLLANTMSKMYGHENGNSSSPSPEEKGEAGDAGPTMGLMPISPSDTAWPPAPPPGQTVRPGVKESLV"}, "source": "paper PMC6669574", "about": "“Effect of Conformational Diversity on the Bioactivity of µ-Conotoxin PIIIA Disulfide Isomers” (2019)", "target": "human NaV1.4 channels (Homo sapiens, UniProt P35499)", "test": "Whole-cell patch clamp, block of depolarization-elicited Na+ inward currents", "note": "pIC50: −log10 of the molar value."}
{"smiles": "CC(C)C[C@H](NC(=O)[C@H](CCCNC(=N)N)NC(=O)[C@@H]1CCC(=O)N1)C(=O)N[C@H]1CSSC[C@@H]2NC(=O)[C@H](CCC(N)=O)NC(=O)[C@H](CCCNC(=N)N)NC(=O)[C@H](CO)NC(=O)[C@H](CCCNC(=N)N)NC(=O)[C@@H]3CSSC[C@@H](C(N)=O)NC(=O)[C@H](CSSC[C@H](NC1=O)C(=O)NCC(=O)N[C@@H](Cc1ccccc1)C(=O)N1C[C@H](O)C[C@H]1C(=O)N[C@@H](CCCCN)C(=O)N[C@@H](CO)C(=O)N3)NC(=O)[C@H](CCCNC(=N)N)NC(=O)[C@H](Cc1c[nH]cn1)NC(=O)[C@@H]1C[C@@H](O)CN1C(=O)[C@H](CCCCN)NC2=O", "note": "(single isomer, unassigned)", "values": [{"measurement": "pIC50", "value": 6.98}, {"measurement": "remaining current component", "setting": "saturating concentration of 100 µM, HEK293, human NaV1.4", "value": "7.2 ± 2.2", "unit": "%"}]}
